Data as given in patent US20150196025A1, “BIOACTIVE HEME-HALOPEROXIDASE COMPOSITIONS AND METHODS OF THEIR USE” (Exoxemis, Inc., priority 2014, published 2015).

System: S. aureus
Assay: Microbicidal plate assay, pEPO with amine additives, aged 0 or 5 minutes with H2O2 (Example 7)
Assay type: cell-based, Staphylococcus aureus
Conditions: FIG. 7, 10 ug/mL pEPO, additive 3 mM, 2 mM NaBr

SMILES: OCCN(CCO)CCO
- microbicidal activity, Reaction 2 (aged 5 minutes with H2O2) (0.89 mM H2O2): only formulations comprising pEPO and ethanolamine or diethanolamine maintained microbicidal activity
- microbicidal activity, Reaction 1 (aged 0 min) (0.89 mM H2O2, one minute, 10^8 cfu/mL): no microbicidal activity
